These results are taken from PubChem BioAssay AID449764 (Southern Research Specialized Biocontainment Screening …, 2010).

pIC50: −log10 of the molar value.

The term pIC50 denotes the IC50 on a negative log10 scale, so that one unit is a factor of ten.

This assay concerns Mycobacterium tuberculosis H37Rv growth inhibition, no glycerol. Put plainly: Mycobacterium tuberculosis H37Rv growth inhibition, no glycerol, confirmatory dose response (AID 449764).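 Note: growth read after 7 days of incubation.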

Consider `O=C(OC1CN2CCC1CC2)C1c2ccccc2Oc2ccccc21` (stereo unspecified), for which the pIC50 is 4.75.
